Measured values from article PMC9784957 (Viruses, 2022).

Tested on: gp41 ectodomain protein construct C22(L4)N50
Test: Covalent adduct formation with gp41 ectodomain protein construct
Format: biochemical, HIV-1
Conditions: for Covalent adduct formation with C22(L4)N50 (Maldi-TOF): overnight at 37 °C, phosphate buffer pH 7.8

| SMILES | Covalent adduct formation with C22(L4)N50 (Maldi-TOF) | Mass modification site (trypsin digest and LC-MS/MS) |
| --- | --- | --- |
| CCOC(=O)c1cc(O)n(-c2ccc(C(=O)Oc3c(F)c(F)c(S(=O)(=O)O)c(F)c3F)cc2)n1 [Compound 3-STP] | only a small amount of the adduct |  |
| Cn1ncc2ccc(-c3ccc4cnn(Cc5ccc(F)c(C(=O)Oc6c(F)c(F)c(S(=O)(=O)O)c(F)c6F)c5)c4c3)cc21 [Compound 2-STP] | adduct formation could be completed | predominantly at K574 |
